# The list shows a part of the results, in another mix than the full data. Activity calls are given as the source filed them.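 How the source made its calls: active means mean replicate inhibition at least 50% and at least half of replicates individually reaching 50%; inconclusive means only one of the two criteria met; inactive means neither criterion met.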
# Test: blockers of twin-arginine translocation in E. coli – MC4100, TorA-mCherry reporter, fluorescence, single point, primary screen (AID 488895);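 further: exported cargo escapes ClpAP degradation while cytoplasmic cargo is degraded and loses fluorescence; 0% = median of neutral control wells and 100% = median of NaSCN control wells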
# Settings: E. coli MC4100 TorA-mCherry Tat export, at 10 µM, active compounds read high
row,Compound,inhibition
1,O=C(O)c1cccc(Nc2c([N+](=O)[O-])cc([N+](=O)[O-])cc2[N+](=O)[O-])c1,inactive: 3.74%
2,CC1=NCCc2c1[nH]c1ccccc21.O=[N+]([O-])c1cc([N+](=O)[O-])c(O)c([N+](=O)[O-])c1,inactive: -12.4%
3,CCOC(=O)c1ccc(NP(C)(=O)Oc2cc(C)cc(C)c2)cc1 (stereo not given),inactive: 2.91%
4,Cc1cc(C)cc(OP(C)(=O)Nc2ccc(C)cc2C)c1 (stereo not given),inactive: -5.34%
5,COc1ccccc1OP(C)(=O)Nc1cccc(Br)c1 (stereo not given),inactive: -4.97%
6,Cc1ccc(C)c(NP(C)(=O)Oc2ccccc2)c1 (stereo not given),inactive: 2.61%
7,Cc1cc(C)cc(OP(C)(=O)Nc2ccccn2)c1 (stereo not given),inactive: 2.15%
8,CP(=O)(Nc1cccc(Br)c1)Oc1ccccc1 (stereo not given),inactive: 5.23%
9,O=[N+]([O-])c1cc([N+](=O)[O-])c(-n2nnc3ccccc32)c([N+](=O)[O-])c1,inactive: -0.114%
10,Cc1nc2ccc3ccccc3c2s1.O=[N+]([O-])c1cc([N+](=O)[O-])c(O)c([N+](=O)[O-])c1,inactive: -3.27%
11,O=[N+]([O-])c1cc([N+](=O)[O-])c(-c2cnn(-c3ccccc3)c2)c([N+](=O)[O-])c1,inactive: -2.51%
12,CCOC(=O)C(CC)C1=NC(C)(C)Cc2ccccc21.O=[N+]([O-])c1cc([N+](=O)[O-])c(O)c([N+](=O)[O-])c1 (stereo not given),inactive: 1.33%
13,CC1=C2N=C(C=C3N=C(C(C)=C4[N-][C@@](C)([C@@H]5N=C1[C@](C)(CCC(=O)NC[C@@H](C)OP(=O)([O-])O[C@H]1[C@@H](O)[C@@H](n6cnc7cc(C)c(C)cc76)O[C@@H]1CO)[C@H]5CC(N)=O)[C@@](C)(CC(N)=O)[C@@H]4CCC(N)=O)[C@@](C)(CC(N)=O)[C@@H]3CCC(N)=O)C(C)(C)[C@@H]2CCC(N)=O.[C-]#N.[Co+3],inactive: 10.4%
14,O=[N+]([O-])c1cc([N+](=O)[O-])c(Nc2nnnn2CCO)c([N+](=O)[O-])c1,inactive: -2.82%
15,CCCOc1ccc(NP(C)(=O)Oc2ccc(Cl)cc2)cc1 (stereo not given),inactive: 0.615%
16,CP(=O)(Nc1ccc(SC(F)(F)F)cc1)Oc1ccccc1 (stereo not given),inactive: 5.73%
17,COc1ccccc1OP(C)(=O)Nc1c(C)cccc1C (stereo not given),inactive: 6.33%
18,CN1CCCCC1COC(=O)C1(O)c2ccccc2CCc2ccccc21 (stereo not given),inactive: 8.56%
19,CP(=O)(Nc1ccccc1Br)Oc1ccccc1 (stereo not given),inactive: 2.35%
20,COc1ccccc1OP(C)(=O)Nc1ccccc1 (stereo not given),inactive: 0.618%

# From PubChem BioAssay AID488895 (Broad Institute, 2010)
